Experimental data published in publication PMC12604803, “Novel ACE2 binding in bat merbecoviruses expands potential host range” (2025).

Legend:
Assay in all cases: flow cytometry on cells
[1] = biological target: HKU5 RBD-hFc (UniProt A3EXD0); settings: read off a plot; for response (% of Positive cells): parent: est. 1.0; for percent of parent (% relative to WT): parent: est. 100
[2] = biological target: BtVs-SC2013 RBD-hFc; settings: parent: est. 100; read off a plot
[3] = biological target: HKU25 RBD-hFc; settings: parent: est. 100; read off a plot

Q: Which response (% of Positive cells) [1] does the source give for “Pipistrellus pipistrellus ACE2 NNS329-331RDS” here?
A: Its response (% of Positive cells) is 0.25.

Q: For Pipistrellus pipistrellus ACE2 Q325P, which response (% of Positive cells) [1] is on record?
A: Its response (% of Positive cells) is 0.8.

Q: “Pipistrellus pipistrellus ACE2 NNS329-331RDS; E353K” was tested. Which response (% of Positive cells) [1] did it give?
A: The response (% of Positive cells) was 0.6.

Q: With Mink ACE2 D90N as the substance, how does the percent of parent (% relative to WT) [2] read?
A: Its percent of parent (% relative to WT) is 38.

Q: And the percent of parent (% relative to WT) [3]?
A: Its percent of parent (% relative to WT) is 44.

Q: For Pipistrellus abramus ACE2 S388P, which percent of parent (% relative to WT) [1] is on record?
A: Its percent of parent (% relative to WT) is 89.

Q: With Pipistrellus abramus ACE2 N353D as the substance, how does the percent of parent (% relative to WT) [1] read?
A: Its percent of parent (% relative to WT) is 84.

Q: Pipistrellus abramus ACE2 RDS328-330NNS was tested. Which percent of parent (% relative to WT) [1] did it give?
A: The percent of parent (% relative to WT) was 1.

Q: How did the response (% of Positive cells) [1] turn out when “Pipistrellus pipistrellus ACE2 Q325P; NNS329-331RDS; E353K” was run?
A: Its response (% of Positive cells) is 6.7.

Q: What does the source list for Mink ACE2 D355A?
A: percent of parent (% relative to WT) [2]: 80; percent of parent (% relative to WT) [3]: 130

Q: For Pipistrellus abramus ACE2 N386K, which percent of parent (% relative to WT) [1] is on record?
A: Its percent of parent (% relative to WT) is 85.

Q: For Pipistrellus abramus ACE2 NQS386-388KQP, which percent of parent (% relative to WT) [1] is on record?
A: Its percent of parent (% relative to WT) is 80.

Q: Pipistrellus abramus ACE2 P324Q was tested. Which percent of parent (% relative to WT) [1] did it give?
A: Its percent of parent (% relative to WT) is 29.

Q: How did the percent of parent (% relative to WT) [2] turn out when Mink ACE2 E38A was run?
A: Its percent of parent (% relative to WT) is 44.

Q: What about the percent of parent (% relative to WT) [3] of the same substance?
A: The percent of parent (% relative to WT) was 30.

Q: Which percent of parent (% relative to WT) [2] does the source give for Mink ACE2 E37A here?
A: Its percent of parent (% relative to WT) is 15.

Q: What about the percent of parent (% relative to WT) [3] of the same substance?
A: The percent of parent (% relative to WT) was 2.

Q: What does the source list for Mink ACE2 R357A?
A: percent of parent (% relative to WT) [2]: 6; percent of parent (% relative to WT) [3]: 1

Q: How did the percent of parent (% relative to WT) [1] turn out when Pipistrellus abramus ACE2 DPI90-92NLT was run?
A: The percent of parent (% relative to WT) was 100.

Q: With “Pipistrellus pipistrellus ACE2 Q325P; NNS329-331RDS” as the substance, how does the response (% of Positive cells) [1] read?
A: The response (% of Positive cells) was 0.2.

Q: How did the percent of parent (% relative to WT) [2] turn out when Mink ACE2 Y41A was run?
A: Its percent of parent (% relative to WT) is 1.

Q: And the percent of parent (% relative to WT) [3]?
A: The percent of parent (% relative to WT) was 2.

Q: “Pipistrellus pipistrellus ACE2 Q325P; E353K” was tested. Which response (% of Positive cells) [1] did it give?
A: The response (% of Positive cells) was 0.45.

Q: With Pipistrellus abramus ACE2 H34S as the substance, how does the percent of parent (% relative to WT) [1] read?
A: The percent of parent (% relative to WT) was 81.

Q: How did the percent of parent (% relative to WT) [1] turn out when Pipistrellus abramus ACE2 N321S was run?
A: Its percent of parent (% relative to WT) is 82.

Q: Which response (% of Positive cells) [1] does the source give for Pipistrellus pipistrellus ACE2 E353K here?
A: The response (% of Positive cells) was 0.8.

Q: How did the percent of parent (% relative to WT) [2] turn out when Mink ACE2 K353A was run?
A: The percent of parent (% relative to WT) was 7.

Q: What about the percent of parent (% relative to WT) [3] of the same substance?
A: Its percent of parent (% relative to WT) is 2.

Q: Pipistrellus abramus ACE2 V30D was tested. Which percent of parent (% relative to WT) [1] did it give?
A: The percent of parent (% relative to WT) was 88.

Q: Pipistrellus abramus ACE2 K352E was tested. Which percent of parent (% relative to WT) [1] did it give?
A: The percent of parent (% relative to WT) was 1.
